{"source": "patent EP1350523B1", "about": "(priority 1992, dated 1994)", "key": {"M14 (melanoma) cells": {"test_system": "M14 (melanoma) cells", "test": "MTT assay of cellular metabolic activity", "conditions": "24 hours exposure, 16-18 hours recovery period"}, "[1]": {"test_system": "BO54 (smooth muscle) cells", "test": "MTT assay of cellular metabolic activity", "conditions": "24 hours exposure, 16-18 hours recovery period"}, "[2]": {"test_system": "HT29 cells (colon carcinoma)", "test": "MTT assay of cellular metabolic activity", "conditions": "24 hours exposure, 16-18 hours recovery period"}, "[3]": {"test_system": "A375 marker-positive cells", "conditions": "5 minute exposure"}, "[4]": {"test_system": "intimal smooth muscle cells", "test": "Intimal smooth muscle proliferation after balloon catheter trauma, single intra-artery infusion", "conditions": "score 1+ (minimal) to 4+ (maximal); 5 weeks after trauma; control treatments"}, "[5]": {"test_system": "B054 arterial smooth muscle cells", "conditions": "5 minute exposure; for protein synthesis, long-term: recovery period"}, "[6]": {"test_system": "HT29 marker-negative cells", "conditions": "5 minute exposure"}, "[7]": {"conditions": "3H-leucine over the next 4 hours"}}, "note": "Where two headings read alike, the source gives them in different places.", "data": [{"substance": "Roridin A", "values": [{"measurement": "concentration at which inhibitory effects on metabolic activity were observed", "setting": "M14 (melanoma) cells", "result": "> 10", "unit": "ng/mL"}, {"measurement": "concentration at which inhibitory effects on metabolic activity were observed", "setting": "[1]", "result": "> 10", "unit": "ng/mL"}, {"measurement": "concentration at which inhibitory effects on metabolic activity were observed", "setting": "[2]", "result": "> 10", "unit": "ng/mL"}, {"measurement": "protein synthesis, short-term effect", "setting": "[3]; [7]", "result": "non-specifically inhibitory"}, {"measurement": "protein synthesis, long-term effect", "setting": "[3]; 16-18 hour recovery period, then 4 hour 3H-leucine", "result": "manifest even after a 16-18 hour recovery period"}, {"measurement": "INTIMAL SMC HYPERTROPHY* ave. (range)", "setting": "[4]", "result": "4 (4)"}, {"measurement": "protein synthesis, long-term", "setting": "[5]; 50ng/ml", "result": "98 % of control"}, {"measurement": "protein synthesis, long-term", "setting": "[5]; 100ng/ml", "result": "46 % of control"}, {"measurement": "protein synthesis, long-term", "setting": "[5]; 200ng/ml", "result": "27 % of control"}, {"measurement": "protein synthesis, short-term", "setting": "[5]; 50ng/ml", "result": "90 % of control"}, {"measurement": "protein synthesis, short-term", "setting": "[5]; 100ng/ml", "result": "66 % of control"}, {"measurement": "protein synthesis, short-term", "setting": "[5]; 200ng/ml", "result": "60 % of control"}, {"measurement": "protein synthesis, short-term effect", "setting": "[6]; [7]", "result": "dose-response inhibition"}, {"measurement": "protein synthesis, long-term effect", "setting": "[6]; 16-18 hours recovery period, then 4 hour 3H-leucine", "result": "still manifest after the 16-18 hours recovery period"}]}]}
